A mixed list of measured activities; the numbers were collected in NIAID ChemDB.

Common to all: tests on isolated targets; species: Candida albicans

Rows are shuffled and stem from different studies. ICn: concentration for n% inhibition. Blank or dashed fields: not listed here.

compound | strain or isolate | protein | read-out | value
CC(C)(C)OC(=O)N[C@@H](Cc1ccccc1)[C@@H](O)C[C@@H](Cc1ccccc1)C(=O)N[C@@H](CCC(N)=O)C(=O)N[C@@H](Cc1ccccc1)C(N)=O | - | Aspartic proteinase | IC50 | >100 µM
CC(=CCC/C=C(\C)CCC=C(C)CCCN(C)C)CC/C=C(\C)CCC1OC1(C)C | - | Oxidosqualene cyclase (microsomal) | IC50 | 8 µM
N[C@@H](Cc1cccc(F)c1)C(=O)N[C@H](C(=O)O)[C@H]1O[C@@H](n2ccc(=O)[nH]c2=O)[C@H](O)[C@@H]1O | H317 | Chitin synthase | IC50 | 2 µg/mL
CC(C)[C@@H](NC(=O)c1cc(=O)c2ccccc2[nH]1)C(=O)N[C@@H](Cc1ccccc1)C[C@@H](O)[C@H](Cc1ccccc1)NC(=O)[C@H](NC(=O)c1cc(=O)c2ccccc2[nH]1)C(C)C | - | Secreted aspartic protease | IC50 | 12 µM
COC(=O)c1ccc2nc(NC(=O)CC3CCC[C@@H](N)C3)sc2c1 | - | N-myristoyltransferase | IC50 | 1.4 µM
CC(C)(C)OC(=O)N[C@@H](Cc1ccccc1)[C@@H](O)C[C@@H](Cc1ccccc1)C(=O)N[C@@H](CCC(=O)O)C(=O)N[C@@H](Cc1ccccc1)C(N)=O | - | Aspartic proteinase | IC50 | >100 µM
O=C(Nc1nc2ccc(NC(=O)[C@H]3CC[C@@H](NCc4ccc5ccccc5c4)C3)cc2s1)C1CCCC1 | - | N-myristoyltransferase | IC50 | 0.015 µM
CCC(C)CC(C)CCCCCCCCC(=O)N[C@H]1C[C@@H](O)[C@@H](O)NC(=O)[C@@H]2[C@@H](O)CCN2C(=O)[C@H]([C@H](O)CC#N)NC(=O)[C@H]([C@H](O)Cc2ccc(O)cc2)NC(=O)[C@@H]2C[C@@H](O)CN2C(=O)[C@H]([C@@H](C)O)NC1=O | MY1055 | Glucan synthase | IC50 | 0.1 µM
NC(=O)NCCC[C@H](N)C(=O)N[C@@H](C(=O)O)[C@H]1O[C@@H](n2ccc(=O)[nH]c2=O)[C@H](O)[C@@H]1O | - | Chitin synthase | IC50 | >100 µM
Cc1cccc(C)c1OCC(=O)N[C@@H](Cc1ccccc1)C[C@@H](O)[C@H](Cc1ccccc1)NC(=O)[C@H](NC(=O)c1cc(=O)c2ccccc2[nH]1)[C@H](C)O | H12 | Aspartic protease SAP2 | IC50 | 120 µM
CCOC(=O)c1oc2cccc(OCCCN3CCCCC3)c2c1C | CY1002 | N-myristoyltransferase | IC50 | 4.1 µM
O=C(Nc1nc2ccc(NC(=O)[C@H]3CCC[C@@H](NCc4ccc5ccccc5c4)C3)cc2s1)C1CCCC1 | - | N-myristoyltransferase | IC50 | >0.01 µM
COC(=O)/C=C/C(=O)CC[C@H](N)C(N)=O.Cl | ATCC 10231 | Glucosamine-6-phosphate synthase | IC50 | 80.7 µg/mL
O=C(NCCNCc1ccc2ccccc2c1)c1cccc2nc(NC(=O)C3CCCCC3)sc12 | - | N-myristoyltransferase | IC50 | 1 µM
Cc1cccc(C)c1OCC(=O)N[C@@H](Cc1ccccc1)C[C@@H](O)[C@H](Cc1ccccc1)NC(=O)[C@H](NC(=O)c1cc(=O)c2ccccc2[nH]1)C(C)C | H12 | Aspartic protease SAP2 | IC50 | 140 µM
CN(C)CCOc1ccccc1/C=N\N1CCN(C2Cc3ccccc3Sc3ccc(Cl)cc32)CC1 | - | Farnesyl-protein transferase | IC50 | >100 µM
CCC(C)CC(C)CCCCCCCCC(=O)N[C@H]1C[C@@H](O)[C@@H](O)NC(=O)[C@@H]2[C@@H](O)CCN2C(=O)[C@H]([C@H](O)CCN=CNN)NC(=O)[C@H]([C@H](O)Cc2ccc(O)cc2)NC(=O)[C@@H]2C[C@@H](O)CN2C(=O)[C@H]([C@@H](C)O)NC1=O | MY1055 | Glucan synthase | IC50 | 0.007 µM
O=C(O)c1ccccc1 | Nce103 | Beta-carbonic anhydrase | Ki | 24.4 µM
O=Cc1ccc(OCC(=O)N[C@@H](Cc2ccccc2)C[C@H](O)[C@H](Cc2ccccc2)NC(=O)COc2ccc(C=O)cc2)cc1 | H12 | Aspartic protease SAP2 | IC50 | 5 µM
CC(C)(C)OC(=O)N[C@@H](Cc1ccccc1)[C@@H](O)C[C@H](Cc1ccccc1)C(=O)N[C@@H](CCC(N)=O)C(=O)N[C@@H](Cc1ccccc1)C(N)=O | - | Aspartic proteinase | IC50 | >100 µM
CC(C)[C@@H](NC(=O)c1cc(=O)c2ccccc2[nH]1)C(=O)N[C@@H](Cc1ccccc1)C[C@@H](O)[C@H](Cc1ccccc1)NC(=O)[C@H](NC(=O)c1cc(=O)c2ccccc2[nH]1)C(C)C | H12 | Aspartic protease SAP2 | IC50 | 12 µM
Cc1cc(Cl)c2nc(-c3ccc(Br)cc3)cc(C(=O)O)c2c1 | - | Prolyl-tRNA synthetase | IC50 | 0.22 µM
CC(C)(C)OC(=O)N[C@@H](Cc1ccccc1)[C@H](O)C[C@@H](Cc1ccccc1)C(=O)N[C@@H](CCC(N)=O)C(=O)N[C@@H](Cc1ccccc1)C(N)=O | - | Aspartic proteinase | IC50 | >100 µM
O=C(NCCNCc1ccc2ccccc2c1)c1ccc2nc(NC(=O)N3CCCCC3)sc2c1 | - | N-myristoyltransferase | IC50 | >10 µM
CC(C)(C)OC(=O)N[C@@H](Cc1ccccc1)[C@H](O)C[C@H](Cc1ccccc1)C(=O)N[C@@H](CCC(=O)O)C(=O)N[C@@H](Cc1ccccc1)C(N)=O | - | Aspartic proteinase | IC50 | 14 µM
C[C@H](N)C(=O)N[C@@H](C(=O)O)[C@H]1O[C@@H](n2ccc(=O)[nH]c2=O)[C@H](O)[C@@H]1O | - | Chitin synthase | IC50 | >100 µM
CCOc1c(Cl)cc2nc(S(N)(=O)=O)sc2c1Cl | - | Geranylgeranyl-protein transferase I | IC50 | 0.09 µM
CC(C)(C)OC(=O)N[C@@H](Cc1ccccc1)[C@@H](O)C[C@H](Cc1ccccc1)C(=O)N[C@@H](CCC(=O)O)C(=O)N[C@@H](Cc1ccccc1)C(N)=O | - | Aspartic proteinase | IC50 | >100 µM
CC1(c2ccc(OCC#N)c(Cl)c2Cl)C(=O)c2ccccc2C1=O | - | Geranylgeranyl-protein transferase I | IC50 | 0.07 µM
Cc1cccc(C)c1OCC(=O)N[C@@H](Cc1ccccc1)C[C@@H](O)[C@H](Cc1ccccc1)NC(=O)[C@H](NC(=O)c1cc(=O)c2ccccc2[nH]1)[C@H](C)O | - | Secreted aspartic protease | IC50 | 120 µM
O=C(NCCNCc1ccc(-c2ccccc2)cc1)c1ccc2nc(NC(=O)C3CCCCC3)sc2c1 | - | N-myristoyltransferase | IC50 | 0.025 µM
CCOC(=O)c1oc2cccc(OC[C@@H](O)CNC(C)(C)C)c2c1C | CY1002 | N-myristoyltransferase | IC50 | 1.1 µM
O=C(c1ccc(Cl)cc1)N1CCC(=Cc2ccc(C3=NCCO3)cc2)CC1 | - | Oxidosqualene cyclase | IC50 | 0.009 µM
NC(=O)[C@@H](Cc1cnc[nH]1)NC(=O)[C@@H](Cc1cccc2ccccc12)NC(=O)C1c2ccccc2Oc2ccccc21 | - | Geranylgeranyltransferase | IC50 | <3 µM
CCCCC/C=C\C/C=C/CC/C=C/[C@H]1C[C@H]([C@](O)(CC(=O)O[C@@H](C(=O)O)[C@H](CC(=O)O)C(=O)O)C(=O)O)C(=O)O1 | - | Geranylgeranyltransferase I | IC50 | 5 µM
Cc1cccc(C)c1OCC(=O)N[C@@H](Cc1ccccc1)C[C@H](O)[C@H](Cc1ccccc1)NC(=O)COc1c(C)cccc1C | H12 | Aspartic protease SAP2 | IC50 | 50 µM

A second listing of 3 rows from above:

compound	strain or isolate	protein	read-out	value
CCOc1c(Cl)cc2nc(S(N)(=O)=O)sc2c1Cl	-	Geranylgeranyl-protein transferase I	IC50	0.09 µM
CC(=CCC/C=C(\C)CCC=C(C)CCCN(C)C)CC/C=C(\C)CCC1OC1(C)C	-	Oxidosqualene cyclase (microsomal)	IC50	8 µM
O=C(NCCNCc1ccc2ccccc2c1)c1ccc2nc(NC(=O)N3CCCCC3)sc2c1	-	N-myristoyltransferase	IC50	>10 µM